Source: PMC4645341 (Journal of Virology, 2015)

Assays:
[1] = target: Recombinant gp41 (r-gp41; HIV-1MN isolate) (HIV-1 isolate MN, UniProt P05877); experiment: ELISA
[2] = target: HIV-1 JR-CSF Env on pseudotyped virus (PsV) particles (HIV-1 isolate JR-CSF, UniProt P20871); experiment: far-Western, overlay or dot blot

B1: 4E10 WT Fab (Fab, V domains shown)
VH: VQLVQSGAEVKRPGSSVTVSCKASGGSFSTYALSWVRQAPGRGLEWMGGVIPLLTITNYAPRFQGRITITADRSTSTAYLELNSLRPEDTAVYYCAREGTTGWGWLGKPIGAFAHWGQGTLVTVSS
VL: EIVLTQSPGTQSLSPGERATLSCRASQSVGNNKLAWYQQRPGQAPRLLIYGASSRPSGVADRFSGSGSGTDFTLTISRLEPEDFAVYYCQQYGQSLSTFGQGTKVEVK
B1: binds [1]; binds [2].

B2: 4E10 ΔLoop Fab (Fab, V domains shown)
VH: VQLVQSGAEVKRPGSSVTVSCKASGGSFSTYALSWVRQAPGRGLEWMGGVIPLLTITNYAPRFQGRITITADRSTSTAYLELNSLRPEDTAVYYCAREGTTGSGGKPIGAFAHWGQGTLVTVSS
VL: EIVLTQSPGTQSLSPGERATLSCRASQSVGNNKLAWYQQRPGQAPRLLIYGASSRPSGVADRFSGSGSGTDFTLTISRLEPEDFAVYYCQQYGQSLSTFGQGTKVEVK
B2: binds [1].
